Measured values from US7425576B2, “Compounds as inhibitors of hepatitis C virus NS3 serine protease” (Schering Corporation, priority 2004, dated 2008).

The chains behind the UniProt entries cited, without tags or fusion partners. Residues count along the entry.
UniProt P27958, 1027-1657 limits assumed: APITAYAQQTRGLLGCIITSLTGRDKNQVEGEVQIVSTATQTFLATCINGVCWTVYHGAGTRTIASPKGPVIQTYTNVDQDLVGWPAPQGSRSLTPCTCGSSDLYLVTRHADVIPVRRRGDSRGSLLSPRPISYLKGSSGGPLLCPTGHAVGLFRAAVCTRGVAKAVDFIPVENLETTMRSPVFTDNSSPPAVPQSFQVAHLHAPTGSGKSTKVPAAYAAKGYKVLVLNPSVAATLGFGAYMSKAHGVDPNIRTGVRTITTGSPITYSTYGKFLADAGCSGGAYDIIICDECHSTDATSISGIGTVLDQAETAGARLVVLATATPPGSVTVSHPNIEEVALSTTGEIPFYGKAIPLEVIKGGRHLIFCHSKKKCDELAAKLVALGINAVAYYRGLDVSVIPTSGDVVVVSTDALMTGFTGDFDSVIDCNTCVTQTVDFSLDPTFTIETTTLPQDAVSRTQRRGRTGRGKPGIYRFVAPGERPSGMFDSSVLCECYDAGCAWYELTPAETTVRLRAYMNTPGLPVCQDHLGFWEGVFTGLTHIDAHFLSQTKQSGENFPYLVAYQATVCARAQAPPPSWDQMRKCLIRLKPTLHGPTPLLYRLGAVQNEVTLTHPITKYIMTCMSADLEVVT
UniProt P27958, 1658-1711 partner limits assumed: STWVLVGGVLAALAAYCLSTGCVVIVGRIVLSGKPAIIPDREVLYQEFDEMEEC

Molecular target: Recombinant heterodimeric HCV NS3/NS4A protease (strain 1a) (Hepatitis C virus genotype 1a, UniProt P27958)
Test: Spectrophotometric assay for HCV protease inhibitory activity (chromogenic ester substrates)
Settings: Table 2, Ki* range class
Text: The present invention relates to novel HCV protease inhibitors. This utility can be manifested in their ability to inhibit the HCV NS2/NS4a serine protease.
Assay for HCV Protease Inhibitory Activity:
Spectrophotometric Assay: Spectrophotometric assay for the HCV serine protease can be performed on the inventive compounds by following the procedure described by R. Zhang et al, Analytical Biochemistry, 270 (1999) 268-275, the disclosure of which is incorporated herein by reference. The assay based on the proteolysis of chromogenic ester substrates is suitable for the continuous monitoring of HCV NS3 protease activity. The substrates are derived from the P side of the NS5A-NS5B junction sequence (Ac-DTEDVVX(Nva), where X=A or P) whose C-terminal carboxyl groups are esterified with one of four different chromophoric alcohols (3- or 4-nitrophenol, 7-hydroxy-4-methyl-coumarin, or 4-phenylazophenol). Illustrated below are the synthesis, characterization and application of these novel spectrophotometric ester substrates to high throughput screening and detailed kinetic evaluation of HCV NS3 protease inhibitors.
Enzyme Preparation: Recombinant heterodimeric HCV NS3/NS4A protease (strain 1a) is prepared by using the procedures published previously (D. L. Sali et al, Biochemistry, 37 (1998) 3392-3401). Protein concentrations are determined by the Biorad dye method using recombinant HCV protease standards previously quantified by amino acid analysis. Prior to assay initiation, the enzyme storage buffer (50 mM sodium phosphate pH 8.0, 300 mM NaCl, 10% glycerol, 0.05% lauryl maltoside and 10 mM DTT) is exchanged for the assay buffer (25 mM MOPS pH 6.5, 300 mM NaCl, 10% glycerol, 0.05% lauryl maltoside, 5 μM EDTA and 5 μM DTT) utilizing a Biorad Bio-Spin P-6 prepacked column.
Protease Assay: HCV protease assays are performed at 30° C. using a 200 μl reaction mix in a 96-well microtiter plate. Assay buffer conditions (25 mM MOPS pH 6.5, 300 mM NaCl, 10% glycerol, 0.05% lauryl maltoside, 5 μM EDTA and 5 μM DTT) are optimized for the NS3/NS4A heterodimer (D. L. Sali et al, ibid.)). Typically, 150 μl mixtures of buffer, substrate and inhibitor are placed in wells (final concentration of DMSO≦4% v/v) and allowed to preincubate at 30° C. for approximately 3 minutes. Fifty μls of prewarmed protease (12 nM, 30° C.) in assay buffer, is then used to initiate the reaction (final volume 200 μl).The plates are monitored over the length of the assay (60 minutes) for change in absorbance at the appropriate wavelength (340 nm for 3-Np and HMC, 370 nm for PAP, and 400 nm for 4-Np) using a Spectromax Plus microtiter plate reader equipped with a monochrometer (acceptable results can be obtained with plate readers that utilize cutoff filters). Proteolytic cleavage of the ester linkage between the Nva and the chromophore is monitored at the appropriate wavelength against a no enzyme blank as a control for non-enzymatic hydrolysis. The evaluation of substrate kinetic parameters is performed over a 30-fold substrate concentration range (˜6-200 μM). Initial velocities are determined using linear regression and kinetic constants are obtained by fitting the data to the Michaelis-Menten equation using non-linear regression analysis (Mac Curve Fit 1.1, K. Raner). Turnover numbers (kcat) are calculated assuming the enzyme is fully active.
Evaluation of Inhibitors and Inactivators: The inhibition constants (Ki) for the competitive inhibitors Ac-D-(D-Gla)-L-I-(Cha)-C—OH (27), Ac-DTEDVVA(Nva)-OH and Ac-DTEDVVP(Nva)-OH are determined experimentally at fixed concentrations of enzyme and substrate by plotting vo/vi vs. inhibitor concentration ([I]o) according to the rearranged Michaelis-Menten equation for competitive inhibition kinetics: vo/vi=1+[I]o/(Ki(1+[S]o/Km)), where vo is the uninhibited initial velocity, vi is the initial velocity in the presence of inhibitor at any given inhibitor concentration ([I]o) and [S]o is the substrate concentration used.

`C#CCCC(NC(=O)[C@@H]1[C@@H]2[C@H](CN1C(=O)[C@@H](NC(=O)N[C@H](COC(=O)NCC1CC1)C(C)(C)C)C1(C)CCCCC1)C2(C)C)C(=O)C(=O)NCCC` (stereo partly drawn) [Example 1117] was tested, and the Ki was 0.075 to 0.25 µM.

With `CC(C)(C)[C@H](NC(=O)N[C@H](COC(=O)NCc1ccccc1)C(C)(C)C)C(=O)N1C[C@H]2[C@@H]([C@H]1C(=O)NC(CC1CC1)C(=O)C(N)=O)C2(C)C` (stereo partly drawn) the Ki was 0.075 to 0.25 µM.

In the case of `CC(C)(C)[C@@H](COC(=O)NCC1CC1)NC(=O)N[C@H](C(=O)N1C[C@H]2[C@@H]([C@H]1C(=O)NC(CCC1CC1)C(=O)C(=O)NC1CC1)C2(C)C)C1(C)CCCCC1` (single isomer, unassigned), the Ki is reported as < 0.075 µM.

`COC(=O)OC[C@@H](NC(=O)N[C@H](C(=O)N1C[C@H]2[C@@H]([C@H]1C(=O)NC(CC1CC1)C(=O)C(N)=O)C2(C)C)C(C)(C)C)C1CCCC1` (stereo partly drawn) was tested, and the Ki was < 0.075 µM.

In the case of `C=CCNC(=O)C(=O)C(CCC)NC(=O)[C@@H]1[C@@H]2[C@H](CN1C(=O)[C@@H](NC(=O)N[C@H](COC(=O)OCC1CC1)C(C)(C)C)C(C)(C)C)C2(C)C` (stereo partly drawn), the Ki is reported as < 0.075 µM.

For `CC(C)NC(=O)OC[C@@H](NC(=O)N[C@H](C(=O)N1C[C@H]2[C@@H]([C@H]1C(=O)NC(CC1CC1)C(=O)C(N)=O)C2(C)C)C(C)(C)C)C(C)(C)C` (stereo partly drawn), the Ki was > 0.25 µM.
